Drawing on article PMC7320009 (Scientific Reports, 2020), this text covers Km and kcat/Km for 1 substance.

The test system of data set [1] is NC(=O)C1=CN([C@@H]2O[C@H](COP(=O)(O)OP(=O)(O)OC[C@H]3O[C@@H](n4cnc5c(N)ncnc54)[C@H](OP(=O)(O)O)[C@@H]3O)[C@@H](O)[C@H]2O)C=CC1. The data set can be described thus: purified protein. As to conditions: pH 6.5; 37.0 °C; varied: cofactor.
The test system of another data set is CC(=O)C(C)=O. The data set can be described thus: purified protein. As to conditions: pH 6.5; 37.0 °C.

By Km is commonly meant the substrate concentration at which the rate is half of its maximum. As usually defined, the kcat/Km is the turnover number divided by the Michaelis constant. In the case of “BPSS2242 (Burkholderia pseudomallei K96243)”, the values for the Km (in data set [1]; in the data set on CC(=O)C(C)=O) were 0.298 ± 0.031 mM and 53 ± 5 mM, respectively. Moreover, the kcat/Km is 910 M⁻¹ s⁻¹ in data set [1] and 4.8 M⁻¹ s⁻¹ in the data set on CC(=O)C(C)=O.
